Taken from: PubChem BioAssay AID1259414 (Drosophila RNAi Screening Center, 2018)
In all, the deposit lists about 24,000 reagents; below is a random part of those with a known target gene and a result. In the full data, about 1,210 (5%) are marked active. 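Inactive calls also include excluded dsRNAs with several or no targets, genes unexpressed in JW18, and well A1, regardless of score.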 Unmarked entries are inactive. A plus sign joins genes that one reagent is predicted to hit.

- Test: 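Host factors increasing or decreasing Wolbachia levels in cultured fly cells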 (primary screen)
- Cell system: Drosophila JW18 cells infected with Wolbachia
- Knock-down reagent: long dsRNA against Drosophila genes, 0.25 µg dsRNA per well of a 384-well plate
- Time to read-out: 5 days
- Treatment: cells persistently infected with Wolbachia before knock-down; no added drug
- Read-out: 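Automated imaging of bacterial rRNA staining divided by host cell count, reported as plate-normalised robust z-score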
- Direction: Wolbachia per cell robust z: higher = more Wolbachia per host cell than the plate typical
- Rule for the call: 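Active if absolute robust z reaches 1.5 in two or more of three replicates, leaving out multi- or no-target dsRNAs, genes unexpressed in JW18 and A1 wells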

The first 9 records, ahead of the listing:
Target gene | dsRNA | Wolbachia per cell robust z, rep 1 | Wolbachia per cell robust z, rep 2 | Wolbachia per cell robust z, rep 3
CG10943 | DRSC09805 | 0.00297 | -0.306 | -0.791
CG10943 | DRSC29258 | -1.1 | -0.275 | 0.431
Acsl | DRSC07252 | 1.37 | 1.41 | 0.679
da | DRSC03517 | -0.25 | 0.535 | 0.307
da | DRSC40784 | -2.64 | -1.04 | -0.747
CG9760 | DRSC11101 | 0.772 | -0.153 | 1.2
CG9760 | DRSC28846 | -0.679 | 0.117 | -0.288
CG15876 | DRSC08484 | -2.07 | -0.846 | -7.16
CG15876 | DRSC27697 | -0.509 | -0.398 | 0.358

The list itself, from the start:
Target gene | dsRNA | Wolbachia per cell robust z, rep 1 | Wolbachia per cell robust z, rep 2 | Wolbachia per cell robust z, rep 3
CG10943 | DRSC09805 | 0.00297 | -0.306 | -0.791
CG10943 | DRSC29258 | -1.1 | -0.275 | 0.431
Acsl | DRSC07252 | 1.37 | 1.41 | 0.679
da | DRSC03517 | -0.25 | 0.535 | 0.307
da | DRSC40784 | -2.64 | -1.04 | -0.747
CG9760 | DRSC11101 | 0.772 | -0.153 | 1.2
CG9760 | DRSC28846 | -0.679 | 0.117 | -0.288
CG15876 | DRSC08484 | -2.07 | -0.846 | -7.16
CG15876 | DRSC27697 | -0.509 | -0.398 | 0.358
Wdr37 | DRSC14500 | 1.35 | 0.453 | 0.528
fs(1)Ya | DRSC23058 | -1.73 | -0.268 | 0.152
CG9986 | DRSC16586 | -0.958 | 0.565 | -6.62
CG9986 | DRSC29323 | 0.0343 | -4.57 | -0.385
Nup54 | DRSC07282 | 0.281 | 0.574 | 0.214
CG1764 | DRSC19779 | 0.28 | 0.136 | -0.446
LeuRS-m | DRSC08595 | -9.6 (active) | 0.108 | -3.89
LeuRS-m | DRSC28690 | -1.19 | -0.649 | 0.565
ND-30 | DRSC08243 | -0.431 | -0.0578 | 0.354
Sox14 | DRSC04656 | -2.09 | 0.063 | -0.877
Sox14 | DRSC27025 | 0.438 | -0.17 | 1.58
CG34049 | DRSC38936 | -0.474 | -0.142 | -4.87
Glo1 | DRSC06657 | -0.172 | 0.297 | 1.47
nAChRalpha4 | DRSC11925 | -0.617 | 0.105 | -1.2
nAChRalpha4 | DRSC26817 | 0.343 | 0.844 | -0.0439
CG15332 | DRSC18015 | -0.0507 | 0.514 | 0.81
CG15332 | DRSC25660 | 0.0969 | -0.579 | -0.00442
CG12253 | DRSC02153 | 0.513 | 0.452 | -0.958
CG12253 | DRSC27266 | -0.543 | 0.313 | 0.0682
strat | DRSC03069 | 0.116 | -7.42 | -0.927
Acam + CG17770 | DRSC29529 | 0.348 | 0.702 | -0.988
Fatp3 | DRSC04366 | 0.983 | 0.284 | -4.46
Fatp3 | DRSC29135 | -0.34 | -0.163 | 0.357
drpr | DRSC08143 | 1.26 | 0.921 | 0.558
drpr | DRSC08525 | 0.983 | 0.254 | 0.597
CG11588 | DRSC09145 | 0.234 | -0.958 | -0.545
CG11588 | DRSC09846 | 0.853 | -0.149 | 0.107
Mkp3 | DRSC10084 | 0.893 | 0.5 | 0.589
Mkp3 | DRSC10085 | 0.117 | -0.821 | -6.83
CG6665 | DRSC07006 | 0.499 | -0.739 | 0.49
CG11313 | DRSC14295 | -0.496 | -2.74 | 0.105
CG34296 | DRSC38809 | 0.167 | -0.351 | 0.277
CG8507 | DRSC16435 | 0.704 | -0.232 | -0.558
CG9308 | DRSC04539 | 0.111 | 0.098 | 0.704
CG9308 | DRSC28962 | -0.56 | -0.27 | -0.249
CG32428 | DRSC11697 | 1.13 | 1.92 | 1.47
CG32428 | DRSC11768 | -0.339 | 0.526 | -0.862
CG32428 | DRSC25993 | -0.788 | -0.778 | -2.08
14-3-3epsilon | DRSC16370 | -1.23 | -1.17 | 0.5
14-3-3epsilon | DRSC40836 | 0.944 | -2.23 | -0.129
CG4586 | DRSC18373 | -0.117 | -0.0496 | 0.395
eIF4E1 | DRSC11342 | 0.545 | 2.09 | 1.46
eIF4E1 | DRSC23583 | 0.0861 | 2.02 | 0.0603
Smyd4-2 | DRSC10126 | -4.05 | -5.21 | -7.03
Smyd4-2 | DRSC25934 | -0.702 | -0.316 | -0.708
Dph1 | DRSC09851 | -0.0354 | -5.61 | -0.191
Lcp65Aa | DRSC11209 | 0.643 | -0.79 | 0.0854
Lcp65Aa | DRSC27546 | 1.37 | 0.478 | 0.572
HDAC11 | DRSC14280 | -1.1 | -0.125 | -1.72
HDAC11 | DRSC26842 | 0.558 | 0.315 | 0.509
Yp1 | DRSC18731 | -0.743 | -1.43 | -0.248
Yp1 | DRSC27876 | 0.0678 | -1 | 0.789
RasGAP1 | DRSC11172 | -2.83 (active) | -4.86 | -1.42
CG4829 | DRSC19920 | -4.19 | -1.74 | 0.654
QC | DRSC09736 | 0.205 | -0.503 | 1.15
Pdcd4 | DRSC19360 | 1.1 | 0.867 | 0.466
Rai1 | DRSC20157 | -2.01 | 0.0334 | 0.582
Rai1 | DRSC28722 | 0.32 | 0.445 | 0.441
CG34112 | DRSC12235 | 0.259 | 0.603 | 0.0454
ValRS | DRSC06864 | 1.13 | -0.255 | 1.04
CG31086 + CG31323 | DRSC14902 | -3.8 | 0.497 | -0.395
CG31086 + CG31323 | DRSC24466 | -0.222 | 0.0556 | 1.17
mdu | DRSC23192 | -2.93 | 1.26 | 0.593
mdu | DRSC28604 | -1.77 | -0.347 | 0.456
Rev1 | DRSC08264 | 0.86 | -0.553 | -0.458
lectin-46Cb | DRSC06611 | 2.19 | -3.7 | -1.11
lectin-46Cb | DRSC25309 | 0.473 | -0.837 | -0.844
Elba1 | DRSC00276 | -2.82 | -0.102 | -1.43
Elba1 | DRSC24062 | -5.64 | 1.07 | -4.21
Tmem18 | DRSC27312 | 0.407 | -0.643 | 0.083
Nsun2 | DRSC18662 | 0.744 | 0.968 | 0.956
Nsun2 | DRSC28657 | 0.968 | -1.01 | 1.01
CG16723 | DRSC15138 | -3.19 | 0.574 | -3.74
CG16723 | DRSC28144 | 0.672 | -1.21 | 0.744
SdhB | DRSC05018 | 0.725 | 0.38 | 0.249
SdhB | DRSC21367 | -1.01 | -0.375 | -1.07
dnk | DRSC16933 | -5.54 | -0.633 | -0.249
dnk | DRSC29240 | -1.21 | 0.495 | 0.454
dnk | DRSC41562 | 0.433 | 1.17 | -0.867
